PubChem BioAssay AID504761 | Drosophila RNAi Screening Center, 2011

- Test: 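Fly genes whose silencing reduces dengue virus type 2 infection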 (primary screen)
- Cells: D.Mel-2 cells from Drosophila
- Reagents: long dsRNA against Drosophila genes
- Treatment: infection with dengue virus type 2; dose and infection time not stated
- Measured: 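Cells stained for dengue envelope protein and imaged; percent of infected cells per well on duplicate plates, ranked by infection, with stained nuclei counted for cell number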
- Direction: infection score: higher = more virus-infected cells; cell count: higher = more cells in the well
- Hit rule: 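Low infection ranks in the two replicates (chance level up to 0.065) followed by a retest with a 1.5-fold or larger significant decrease, p below 0.05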
- Calls: active = confirmed: knock-down lowers infection; inactive = not picked or not confirmed
The screen tested about 22,000 reagents; this is an unselected part of those that have a named target and a result. Of all reagents, 116 (0.52%) got an active call. 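Calls depend on retest data that are not deposited; infection was ranked per plate without normalising between plates; the unit of the infection score is not given.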 Raw values are not corrected between plates. Not all columns of the deposit are shown. No sequences are given here. Not stated in the record: the amount of reagent, the time to read-out.

Obp50a (Odorant-binding protein 50a) [DRSC22152] gave infection score, replicate 1 = 8.81; cell count, replicate 1 = 6390; inactive.
After knock-down of Obp50a (Odorant-binding protein 50a) [DRSC28404], the record shows infection score, replicate 1 = 12.6; cell count, replicate 1 = 4483; inactive.
Against comt (comatose) [DRSC20319], the entry reads infection score, replicate 1 = 2.97; cell count, replicate 1 = 6170; inactive.
After knock-down of comt (comatose) [DRSC25218] the results were infection score, replicate 1 = 2.78; cell count, replicate 1 = 5899; inactive.
After knock-down of CG5568 [DRSC10518], the record shows infection score, replicate 1 = 10.4; cell count, replicate 1 = 6631; inactive.
After knock-down of CG5568 [DRSC22816], the record shows infection score, replicate 1 = 2.48; cell count, replicate 1 = 5764; inactive.
Silencing of CG5568 [DRSC24887] gave: infection score, replicate 1 = 2.68; cell count, replicate 1 = 6822; inactive.
After knock-down of form3 (formin 3) [DRSC10195] the results were infection score, replicate 1 = 3.04; cell count, replicate 1 = 6819; inactive.
form3 (formin 3) [DRSC10297] scored infection score, replicate 1 = 8.85; cell count, replicate 1 = 4655; inactive.
With knock-down of form3 (formin 3) [DRSC11024], the record shows infection score, replicate 1 = 3.99; cell count, replicate 1 = 5911; inactive.
After knock-down of Cpr23B (Cuticular protein 23B) [DRSC23504], the screen gave infection score, replicate 1 = 1.15; cell count, replicate 1 = 6170; inactive.
Knock-down of CG31810 [DRSC01560] resulted in: infection score, replicate 1 = 2.09; cell count, replicate 1 = 6447; inactive.
After knock-down of CG10466 [DRSC02060] the results were infection score, replicate 1 = 16.9; cell count, replicate 1 = 5336; inactive.
CG42271 [DRSC19809] gave infection score, replicate 1 = 2.22; cell count, replicate 1 = 5894; inactive.
Against CG42271 [DRSC22894] the deposit lists infection score, replicate 1 = 1.37; cell count, replicate 1 = 5835; inactive.
For CG42271 [DRSC27249], the entry reads infection score, replicate 1 = 5.5; cell count, replicate 1 = 6377; inactive.
After knock-down of CG42271 [DRSC27338], the record shows infection score, replicate 1 = 24.3; cell count, replicate 1 = 6598; inactive.

No new results follow: entries from further up.
CG42271 [DRSC19809] — infection score, replicate 1 = 2.22; cell count, replicate 1 = 5894; Call = inactive
CG42271 [DRSC22894] — infection score, replicate 1 = 1.37; cell count, replicate 1 = 5835; Call = inactive
